Anti-infective test results gathered from many reports (values: NIAID ChemDB through PubChem).

Shared fields: enzyme or target tests; organism: HIV-1; protein: Integrase; read by: 3′ processing; read-out: IC50

Neighbouring rows are from separate reports. ICn: concentration for n% inhibition.

compound,value
O=c1cc2c(=O)oc3cc(O)c(O)oc3c2c(O)c1O,2.9 µM
CCCCCCCNC1=C(O)c2ccccc2C(=O)C1=O,>100 µM
O=[N+]([O-])c1ccccc1S(=O)(=O)c1ccccc1[N+](=O)[O-],>100 µM
Oc1ccc(/C=C/c2ncc3cccc(O)c3n2)cc1O,57.1 µM
O=S(=O)(c1ccc(I)cc1)c1ccc(I)cc1,>100 µM
Cn1cc(NC(=O)c2cc(NC(=O)c3cc(NC(=O)CCCCCCCCCCCCCCCCCCCCCCC(=O)Nc4cc(C(=O)Nc5cc(C(=O)Nc6cc(C(=O)NCCC(=N)N)n(C)c6)n(C)c5)n(C)c4)cn3C)cn2C)cc1C(=O)NCCC(=N)N,12.2 µM
O=C(NCc1ccc(F)cc1)c1nc(N2CCCCS2(=O)=O)c2cccnc2c1O,0.25 µM
O=C(O)C(=O)CC(=O)c1ccccc1,>333 µM
COC(=O)c1cc(OC)c(OC)c(OC)c1-c1cc2c(cc1C=O)OCO2,>250 µM
O=C(O)C(=O)/C=C(\O)c1ccccc1O,>100 µM
COc1ccc2c(c1)C(=O)N1CSCC1C(=O)S2,215 µM
C[C@H](OC(=O)/C=C/c1ccc(O)c(O)c1)[C@H](C)OC(=O)/C=C/c1ccc(O)c(O)c1,38.4 µM
CC(C)C[C@H](NC(=O)[C@@H](N)CC(=O)O)C(=O)NC(CCO)C(=O)ON[C@@H](Cc1cnc[nH]1)C(=O)N[C@@H](C)C(=O)N[C@@H](CCC(N)=O)C(=O)O,30 µM
COc1cccc2cnc(/C=C/c3ccc(O)cc3)nc12,>>200 µM
Cn1cc(NC(=O)c2cc(NC(=O)c3cc(NC(=O)CCCCCCC(=O)Nc4cc(C(=O)Nc5cc(C(=O)Nc6cc(C(=O)NCCC(=N)N)n(C)c6)n(C)c5)n(C)c4)cn3C)cn2C)cc1C(=O)NCCC(=N)N,0.09 µM
O=[N+]([O-])c1cc(S(=O)(=O)c2ccc(F)c([N+](=O)[O-])c2)ccc1F,40 µM
Oc1ccc(/C=C/c2ncc3ccccc3n2)cc1O,20.8 µM
CN1CCC(C2Sc3ccccc3C(=O)N3CCCC23)CC1,>1000 µM
COc1ccc(/C=C/c2ncc3ccccc3n2)cc1O,>>200 µM
O=C(/C=C/c1ccc(O)c(O)c1)NCCOC(=O)/C=C/c1ccc(O)c(O)c1,27.5 µM
COc1cc(O)c2c(c1O)C(=O)c1cc(C)ncc1C2=O,42 µM
Cn1cc(NC(=O)c2cc(NC(=O)CCCCCCCCCC(=O)Nc3cc(C(=O)Nc4cc(C(=O)NCCC(N)=[NH2+])n(C)c4)n(C)c3)cn2C)cc1C(=O)NCCC(N)=[NH2+],37.6 µM
CCC(CO)NC(=O)Nc1ccc(S(=O)(=O)c2ccc([N+](=O)[O-])cc2)cc1,>100 µM
Nc1ccn([C@H]2C[C@H](OP(=O)(O)OC[C@H]3OC[C@@H](n4ccc(=O)[nH]c4=O)[C@@H]3O)[C@@H](COP(=O)(O)O)O2)c(=O)n1,7 µM
O=[N+]([O-])c1ccccc1S(=O)(=O)c1ccc(Cl)cc1,>100 µM
O=C1C(=O)c2ccccc2C(O)=C1C(CCc1ccccc1)C1=C(O)c2ccccc2C(=O)C1=O,>100 µM
N=C(N)c1ccc(-c2cc3ccc(C(=N)N)cc3[nH]2)cc1,>100 µM
O=[N+]([O-])c1cc(Cl)ccc1S(=O)(=O)c1ccccc1,87.5 µM
O=C(O)c1cc(-c2cn(Cc3ccc(F)cc3)cc2-c2ccccc2)n[nH]1,>333 µM
O=C(NCc1ccc(F)cc1)C1C(=O)N(O)C(=O)c2ccccc21,0.066 µM
Cn1cc(NC(=O)c2cc(NC(=O)c3cc(NC=O)cn3C)cn2C)cc1C(=O)NCCC(=N)N,56.9 µM
C=C1c2c(O)c(C)c(O)c(C(C)=O)c2OC12CC(=O)C(C(=O)O)=C2C,212 µM
CN(C)CCCNC(=O)c1cc(NC(=O)c2cc(NC(=O)c3cc(NC(=O)c4cnccc4C(=O)O)cn3C)cn2C)cn1C,>100 µM
COc1ccc(/C(O)=C/C(=O)C(=O)O)cc1OC,>100 µM
CSCC[C@H](NCC(=O)Nc1ccc(S(=O)(=O)c2ccc(NC(=O)CN[C@@H](CCSC)C(=O)O)cc2)cc1)C(=O)O,>100 µM
O=C(/C=C/c1ccc(O)c(O)c1)O[C@H]1CCCC[C@@H]1OC(=O)/C=C/c1ccc(O)c(O)c1,24.8 µM
Oc1ccc(/C=C/c2ncc3ccccc3n2)cc1,>>200 µM
O=C(O)C(=O)/C=C(\O)c1ccc2ccccc2c1,>100 µM
O=C(O)c1ccc(S(=O)(=O)c2ccc(C(=O)O)c([N+](=O)[O-])c2)cc1[N+](=O)[O-],55 µM
N=C1/C(=C/c2ccccc2O)C(=O)NN1C(=O)c1ccncc1,>250 µM
O=C1Sc2ccccc2C(=O)N2CCCCC12,450 µM
COc1ccccc1NC(=O)C1=CNC(C)=C(C(=O)Nc2ccccc2OC)C1c1c(Cl)cccc1Cl,>250 µM
CCCCCCc1cc2c(O)c(C(c3ccccc3)c3c(O)c4cc(CCCCCC)c(O)cc4oc3=O)c(=O)oc2cc1O,10.5 µM
Nc1ccn([C@H]2C[C@H](O)[C@@H](COP(=O)(O)O[C@H]3C[C@H](n4cnc5c(N)ncnc54)O[C@@H]3COP(=O)(O)O)O2)c(=O)n1,6 µM
CCC(CCl)NC(=O)Nc1ccc(S(=O)(=O)c2ccc([N+](=O)[O-])cc2)cc1,>100 µM
COc1ccc(CN=[N+]=[N-])cc1C(=O)CC(=O)C(=O)O,>100 µM
O=C1C(=O)N(CC2CC2)C(c2ccccc2)/C1=C(/O)c1ccccc1,>100 µM
COc1ccccc1/C(O)=C/C(=O)C(=O)O,>100 µM
COc1cccc2cnc(/C=C/c3ccc(O)c(O)c3)nc12,>>200 µM